Laboratory results: PubChem BioAssay AID1259414 (Drosophila RNAi Screening Center, 2018)

- Screen: 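Fly genes that alter Wolbachia amount inside host cells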 (primary screen)
- Cells: Drosophila JW18 cells infected with Wolbachia
- Knock-down reagent: long dsRNA against Drosophila genes, 0.25 µg dsRNA per well of a 384-well plate
- Timing: 5 days
- Challenge: cells persistently infected with Wolbachia before knock-down; no added drug
- Read-out: 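Automated imaging of bacterial rRNA staining divided by host cell count, reported as plate-normalised robust z-score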
- Direction: Wolbachia per cell robust z: higher = more Wolbachia per host cell than the plate typical
- Hit rule: 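Hit when robust z is 1.5 or more, or -1.5 or less, in at least two of three replicates; excludes dsRNAs with several or no targets, genes not expressed in JW18 and well A1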
The screen tested about 24,000 reagents; this is a random part of those that have a named target and a result. Of all reagents, about 1,210 (5%) got an active call. 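Inactive calls also include excluded dsRNAs with several or no targets, genes unexpressed in JW18, and well A1, regardless of score.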 A plus sign joins genes that one reagent is predicted to hit.

CG18259 + CG6961 [DRSC20019] showed Wolbachia per cell robust z, rep 1 = -0.382; Wolbachia per cell robust z, rep 2 = -1.32; Wolbachia per cell robust z, rep 3 = -0.53; inactive.
Depletion of Mur18B (Mucin related 18B) [DRSC20063] came out at: Wolbachia per cell robust z, rep 1 = 0.173; Wolbachia per cell robust z, rep 2 = -0.124; Wolbachia per cell robust z, rep 3 = -0.0209; inactive.
After knock-down of Mur18B (Mucin related 18B) [DRSC28610] the results were Wolbachia per cell robust z, rep 1 = -1.65; Wolbachia per cell robust z, rep 2 = -0.15; Wolbachia per cell robust z, rep 3 = -0.929; inactive.
Silencing of Mur18B (Mucin related 18B) [DRSC39003] came out at: Wolbachia per cell robust z, rep 1 = 1.12; Wolbachia per cell robust z, rep 2 = 1.31; Wolbachia per cell robust z, rep 3 = 0.293; inactive.
CG13127 [DRSC02223] scored Wolbachia per cell robust z, rep 1 = -1.93; Wolbachia per cell robust z, rep 2 = 0.806; Wolbachia per cell robust z, rep 3 = -1.1; inactive.
CG13127 [DRSC29726] gave Wolbachia per cell robust z, rep 1 = 0.92; Wolbachia per cell robust z, rep 2 = 0.906; Wolbachia per cell robust z, rep 3 = -5.48; inactive.
Knock-down of brat (brain tumor) [DRSC03497] came out at: Wolbachia per cell robust z, rep 1 = 1.84; Wolbachia per cell robust z, rep 2 = 1.69; Wolbachia per cell robust z, rep 3 = 0.859; inactive.
With knock-down of brat (brain tumor) [DRSC36513] the results were Wolbachia per cell robust z, rep 1 = -0.167; Wolbachia per cell robust z, rep 2 = -1.47; Wolbachia per cell robust z, rep 3 = -0.729; inactive.
After knock-down of brat (brain tumor) [DRSC37393], the screen gave Wolbachia per cell robust z, rep 1 = 0.9; Wolbachia per cell robust z, rep 2 = -0.109; Wolbachia per cell robust z, rep 3 = 0.704; inactive.
After knock-down of brat (brain tumor) [DRSC40657] the results were Wolbachia per cell robust z, rep 1 = 0.123; Wolbachia per cell robust z, rep 2 = 1.14; Wolbachia per cell robust z, rep 3 = 0.896; inactive.
Against Ms (Myosuppressin) [DRSC16041] the deposit lists Wolbachia per cell robust z, rep 1 = 0.22; Wolbachia per cell robust z, rep 2 = -6.59; Wolbachia per cell robust z, rep 3 = 0.0979; inactive.
Ms (Myosuppressin) [DRSC29774] scored Wolbachia per cell robust z, rep 1 = -0.664; Wolbachia per cell robust z, rep 2 = 0.322; Wolbachia per cell robust z, rep 3 = 1.06; inactive.
Against Desat2 (Desaturase 2) [DRSC15919], the values are Wolbachia per cell robust z, rep 1 = -0.369; Wolbachia per cell robust z, rep 2 = -1.43; Wolbachia per cell robust z, rep 3 = -1.86; inactive.
Silencing of Desat2 (Desaturase 2) [DRSC25894] gave: Wolbachia per cell robust z, rep 1 = -0.671; Wolbachia per cell robust z, rep 2 = -1.26; Wolbachia per cell robust z, rep 3 = -0.033; inactive.
With knock-down of Dbp21E2 (DEAD box protein 21E2) [DRSC00616], the record shows Wolbachia per cell robust z, rep 1 = -0.14; Wolbachia per cell robust z, rep 2 = -7.77; Wolbachia per cell robust z, rep 3 = 0.187; inactive.
Silencing of Dbp21E2 (DEAD box protein 21E2) [DRSC28425] came out at: Wolbachia per cell robust z, rep 1 = -0.0739; Wolbachia per cell robust z, rep 2 = -0.816; Wolbachia per cell robust z, rep 3 = -0.6; inactive.
CG7523 [DRSC16254] scored Wolbachia per cell robust z, rep 1 = 1.04; Wolbachia per cell robust z, rep 2 = -0.344; Wolbachia per cell robust z, rep 3 = 1.12; inactive.
With knock-down of sowah (sosondowah) [DRSC09186], the record shows Wolbachia per cell robust z, rep 1 = 0.238; Wolbachia per cell robust z, rep 2 = 0.0407; Wolbachia per cell robust z, rep 3 = -2.21; inactive.
Silencing of sowah (sosondowah) [DRSC09758] resulted in: Wolbachia per cell robust z, rep 1 = -0.706; Wolbachia per cell robust z, rep 2 = 1.52; Wolbachia per cell robust z, rep 3 = 0.44; inactive.
Silencing of CG32651 [DRSC18941] resulted in: Wolbachia per cell robust z, rep 1 = -0.398; Wolbachia per cell robust z, rep 2 = -4.5; Wolbachia per cell robust z, rep 3 = -2.47; inactive.
CG15719 [DRSC19685] showed Wolbachia per cell robust z, rep 1 = -3.48; Wolbachia per cell robust z, rep 2 = -1.02; Wolbachia per cell robust z, rep 3 = 0.52; inactive.
cyp33 (cyclophilin-33) [DRSC07600] gave Wolbachia per cell robust z, rep 1 = -1.33; Wolbachia per cell robust z, rep 2 = -0.231; Wolbachia per cell robust z, rep 3 = -0.735; inactive.
For CG6674 [DRSC10692], the entry reads Wolbachia per cell robust z, rep 1 = 0.127; Wolbachia per cell robust z, rep 2 = -0.167; Wolbachia per cell robust z, rep 3 = 1.02; inactive.
Against MstProx + Mst84Da [DRSC12597] the deposit lists Wolbachia per cell robust z, rep 1 = 0.0399; Wolbachia per cell robust z, rep 2 = 0.477; Wolbachia per cell robust z, rep 3 = 1.21; inactive.
Silencing of Cpr31A (Cuticular protein 31A) [DRSC02779] resulted in: Wolbachia per cell robust z, rep 1 = 1.61; Wolbachia per cell robust z, rep 2 = -0.116; Wolbachia per cell robust z, rep 3 = -0.214; inactive.
Cpr31A (Cuticular protein 31A) [DRSC28742] scored Wolbachia per cell robust z, rep 1 = -0.267; Wolbachia per cell robust z, rep 2 = -0.647; Wolbachia per cell robust z, rep 3 = -0.191; inactive.
After knock-down of CG8248 [DRSC07124], the screen gave Wolbachia per cell robust z, rep 1 = 0.125; Wolbachia per cell robust z, rep 2 = 0.29; Wolbachia per cell robust z, rep 3 = 0.069; inactive.
For CG5391 [DRSC15790], the entry reads Wolbachia per cell robust z, rep 1 = 0.59; Wolbachia per cell robust z, rep 2 = -1.56; Wolbachia per cell robust z, rep 3 = 1.3; inactive.
Against ppk9 (pickpocket 9) [DRSC04134], the entry reads Wolbachia per cell robust z, rep 1 = -3.04; Wolbachia per cell robust z, rep 2 = -0.277; Wolbachia per cell robust z, rep 3 = -0.00939; inactive.
ppk9 (pickpocket 9) [DRSC04135] gave Wolbachia per cell robust z, rep 1 = -0.452; Wolbachia per cell robust z, rep 2 = -0.316; Wolbachia per cell robust z, rep 3 = 0.0424; inactive.

Laid out differently: entries from further up.
target,amplicon,"Wolbachia per cell robust z, rep 1","Wolbachia per cell robust z, rep 2","Wolbachia per cell robust z, rep 3",activity call
Cpr31A (Cuticular protein 31A),DRSC28742,-0.267,-0.647,-0.191,inactive
CG8248,DRSC07124,0.125,0.29,0.069,inactive
CG5391,DRSC15790,0.59,-1.56,1.3,inactive
ppk9 (pickpocket 9),DRSC04134,-3.04,-0.277,-0.00939,inactive
ppk9 (pickpocket 9),DRSC04135,-0.452,-0.316,0.0424,inactive
